Read-outs that look alike come from different tables or passages of the source.
Tests used:
[1] = system: chloroquine-sensitive strain 3D7 of P. falciparum; assay: P. falciparum growth inhibition in culture, strain 3D7; type: cell-based, Plasmodium falciparum
[2] = system: chloroquine-resistant strain K1 of P. falciparum; assay: P. falciparum growth inhibition in culture, strain K1; type: cell-based, Plasmodium falciparum

Nitrotetrazolium was tested, and the “experimentally determined to work” value ([1]; Table 5, P. falciparum ED50 in 3D7 and K1) was “Y (Y—yes (<=1uM ED50))”, the EC50 ([1]; read-out: ED50 (μM) in 3D7, Table 5) was 0.5 µM and the EC50 ([1]; read-out: ED50 in 3D7, Table 3 section A, mean of at least two measurements) was 0.5 µM. The “result of the 16 tested inhibitors in words (binding)” value ([1]; summary of Table 5) was “very strong binding”, the EC50 ([2]; read-out: ED50 (μM) in K1, Table 5) was less than 1 µM and the EC50 ([2]; read-out: ED50 in K1, Table 3 section A, mean of at least two measurements) was less than 1 µM.
